Assay results: patent EP4563146A1 (IRBM S.P.A., priority 2023, dated 2025)
pEC50, pIC50: −log10 of the molar value.

Legend:
[1] = target: DEN2V NS2B-G4SG4-NS3 serine protease (Dengue virus type 2, UniProt Q91H74); conditions: read-out: Dengue 2 - NS3 protease
ZIKV replicon = conditions: read-out: ZIKA Cell_Nanoluc; Vero cells with stable ZIKV replicon, 72 h, Nano-Glo readout

Compound: COc1cccc(C23COC(C2)C3C(=O)Nc2cc(NC(=O)[N-]c3c[n+](Cc4ccccn4)no3)cc(C(F)(F)F)c2)c1 (centres unmarked)
- pIC50 [1]: 6.00 to 7.00
- pEC50 (ZIKV replicon): 4.70 to 6.00
